Measured values from several laboratories, pooled; numbers as filed in NIAID ChemDB.

Shared fields: toxicity to cultured cells; cells: HepG2; measure: CC50

Conditions beyond the fields shown may differ between rows. Two numbers with a dash give a range or band. An empty or dashed field is not shown. CCn: concentration that lowers growth or viability of the cells by n%.

structure	read by	result
COc1ccc(-c2ccc3c(NCCCNCc4ccco4)ccnc3c2)cc1	fluorescence	6 µM
CNC(=O)c1ccc(-n2c([C@@H]3CC3(F)F)nc3c(c2=O)C[C@@H](C)N(C(=O)c2ccc(Cl)c(C(F)(F)F)c2)C3)cc1	luminescence	27 µM
Cc1cc(NC(=O)c2c(C)c(C(=O)C(=O)NCC(C)(C)O)n(C)c2-c2ccsc2)ccc1F	MTT	5–30 µM
CNC(=O)c1c(C)c(-n2c(NC(C)C)nc3c(c2=O)C[C@@H](C)N(C(=O)c2ccc(Cl)c(C(F)(F)F)c2)C3)nn1C	luminescence	>50 µM
CCOC(=O)CCCCCOc1cccc(CN(C(=O)c2ccc(-c3cccc(CC(=O)O)c3)cc2)C(C)C)c1	-	>20 µM
Cc1c(C(=O)Nc2ccc(F)c(C#N)c2)c(C)n(C)c1C(=O)C(=O)NC1(C)CCC(O)CC1	MTT	>30 µM
COc1ccc(F)cc1CNCCCNc1ccnc2cc(CCC(C)C)ccc12	fluorescence	0.89 µM
Cc1cc(NC(=O)c2c(C)c(C(=O)C(=O)NC3(C)CCN(CC(=O)O)CC3)n(C)c2C)ccc1F	MTT	>30 µM
C=CCCN(Cc1cc(OC)cc(OC)c1)C(=O)CC(C)=O	-	>20 µM
CCC1(NC(=O)C(=O)c2c(C)c(C(=O)Nc3ccc(F)c(C)c3)c(C)n2C)CCN(C(=O)c2cnn(C)c2)CC1	MTT	>30 µM
CNC(=O)N1CC2(CC(n3c(NC(C)C)nc4c(c3=O)C[C@@H](C)N(C(=O)c3ccc(Cl)c(C(F)(F)F)c3)C4)C2)C1	luminescence	>50 µM
Cc1cc(NC(=O)c2c(C)c(C(=O)C(=O)NC3(CO)CCN(C(=O)c4cn(C)nc4C(F)F)CC3)n(C)c2C)ccc1F	MTT	>30 µM
CC(C)N(Cc1cccc(OCCCCCC(=O)O)c1)C(=O)c1ccc(-c2ccc3c(c2)OCO3)cc1	-	>20 µM
CNC(=O)c1ccc(-n2c([C@H](O)C(C)C)nc3c(c2=O)C[C@@H](C)N(C(=O)c2ccc(Br)c(C(F)(F)F)c2)C3)cc1	luminescence	>50 µM
COc1cccc(CNCCCNc2ccnc3cc(CCC(C)C)ccc23)c1O	fluorescence	5.39 µM
CC(C)N(Cc1cccc(OCCCCCC(=O)OC(=O)O)c1)C(=O)c1ccc(-c2ccsc2)cc1	-	>20 µM
Cc1cc(NC(=O)c2c(C)c(C(=O)C(=O)NC3(C)CCN(C(=O)N4CCOCC4)CC3)n(C)c2C)ccc1F	MTT	>30 µM
COc1ccc(C)cc1OCCBr	-	>20 µM
COc1ccc(F)cc1CNCCCNc1ccnc2cc(Cc3ccc(F)cc3Cl)ccc12	fluorescence	2.46 µM
CCOC(=O)CCCCCOc1cccc(CN(C(=O)c2ccc(-c3cccc(OCC)c3)cc2)C(C)C)c1	-	>20 µM
Cc1cc(NC(=O)c2c(C)c(C(=O)C(=O)NC3(C)CCC(O)CC3)n(C)c2-c2ccncc2)ccc1F	MTT	>30 µM
[N-]=[N+]=NC[C@H](O)c1ccc2c(c1)CCO2	-	>20 µM
COc1ccc(F)cc1CNCCCNc1ccnc2cc(C3CCCCC3)ccc12	fluorescence	2.29 µM
CCC1(NC(=O)C(=O)c2c(C)c(C(=O)Nc3ccc(F)c(C)c3)c(C)n2C)CCN(C(=O)c2cn(C)nc2C(F)F)CC1	MTT	>30 µM
CC(C)N(Cc1ccccc1)C(=O)c1ccc(-c2ccc3c(c2)OCO3)cc1	-	<13.5 µM